# Fitness effects across NS2B and the NS3 protease domain of Zika virus

Reference: Ni et al. 2025, doi:10.1038/s41467-025-63602-z.

The scanned region of Zika virus MR766 is shown below (positions 1-308): NS2B is 2-131, NS3 begins at position 132.
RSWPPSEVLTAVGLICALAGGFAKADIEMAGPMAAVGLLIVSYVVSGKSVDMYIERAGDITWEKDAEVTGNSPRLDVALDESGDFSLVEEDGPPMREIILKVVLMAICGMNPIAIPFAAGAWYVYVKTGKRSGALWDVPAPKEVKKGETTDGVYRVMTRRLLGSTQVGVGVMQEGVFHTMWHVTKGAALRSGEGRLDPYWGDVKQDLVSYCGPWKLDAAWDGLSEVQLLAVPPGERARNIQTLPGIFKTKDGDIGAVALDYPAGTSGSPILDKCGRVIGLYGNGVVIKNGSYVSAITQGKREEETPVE

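Pools of virus carrying all single amino acid changes were selected for growth in Huh-7.5 cells. Deep sequencing gave the change in frequency of each mutant relative to wild type, averaged over three replicate libraries (two for positions 207-308).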

Scale: log2 effect, wild type = 0; the lower, the more harmful to the virus. A change reads original residue, position, new residue. This list holds changes to histidine only. The region was split into three libraries (1-103, 104-206, 207-308).

G282H gave -3.86. N283H gave -5.55. G284H gave -4.23. With V285H the assay gave -4.66. For V286H the result was -4.82. With I287H the assay gave -0.93. K288H gave -1.59.

For N289H the result was -6.11. For G290H the result was -5.01. For S291H the result was -4.51. Y292H read -3.96. With V293H the assay gave -4.42. For S294H the result was -4.42. A295H read -4.99.

I296H gave -4.90. With T297H the assay gave -4.04. Q298H gave -6.61. G299H read -3.07. K300H gave -1.57. With R301H the assay gave -4.57. For E302H the result was -0.86.

With E303H the assay gave -1.22. With E304H the assay gave -1.28. With T305H the assay gave -0.73. P306H gave -0.91. With V307H the assay gave -0.55. For E308H the result was 1.21.

Values above 0 are not proof of better growth: six high scorers were tested one by one, five grew less well than wild type and one about as well. Position 1 still belongs to NS2A. In the paper, -1 or higher counts as tolerated.